Laboratory results: patent US8470771B2, “Method and medicament for inhibiting the infection of influenza virus” (priority 2007, dated 2013)

Assays:
[1] = tested on: QH-WSN virus (avian influenza virus H5N1)
[2] = tested on: JX virus (human influenza virus H3N2)
[3] = tested on: WSN virus (human influenza virus H1N1)

## CC[C@H](C)[C@H](NC(=O)[C@H](C)NC(=O)[C@H](CCCCN)NC(=O)[C@H](CCC(N)=O)NC(=O)[C@@H](NC(=O)[C@H](CO)NC(=O)[C@H](CCC(=O)O)NC(=O)[C@@H](N)CCCCN)[C@@H](C)O)C(=O)N[C@@H](CC(=O)O)C(=O)NCC(=O)N[C@H](C(=O)N[C@H](C(=O)N[C@@H](CC(N)=O)C(=O)N[C@@H](CCCCN)C(=O)N[C@H](C(=O)N[C@@H](CC(N)=O)C(=O)N[C@@H](CO)C(=O)N[C@H](C(=O)N[C@H](C(=O)N[C@@H](CC(=O)O)C(=O)N[C@@H](CCCCN)C(=O)O)[C@@H](C)CC)[C@@H](C)CC)C(C)C)[C@@H](C)O)C(C)C [HR1]
[1]
  IC50: 15.8 ± 2.3 µM
[2]
  IC50: 16.4 ± 2.5 µM
[3]
  IC50: 11.1 ± 3.8 µM
